These results are taken from PMC5916922, “The Bexsero Neisseria meningitidis serogroup B vaccine antigen NHBA is a high-affinity chondroitin sulfate binding protein” (Scientific Reports, 2018).

Chains of the proteins cited; added tags and fusions are not shown. Residues count along the entry.
UniProt Q7DD37, 25-488: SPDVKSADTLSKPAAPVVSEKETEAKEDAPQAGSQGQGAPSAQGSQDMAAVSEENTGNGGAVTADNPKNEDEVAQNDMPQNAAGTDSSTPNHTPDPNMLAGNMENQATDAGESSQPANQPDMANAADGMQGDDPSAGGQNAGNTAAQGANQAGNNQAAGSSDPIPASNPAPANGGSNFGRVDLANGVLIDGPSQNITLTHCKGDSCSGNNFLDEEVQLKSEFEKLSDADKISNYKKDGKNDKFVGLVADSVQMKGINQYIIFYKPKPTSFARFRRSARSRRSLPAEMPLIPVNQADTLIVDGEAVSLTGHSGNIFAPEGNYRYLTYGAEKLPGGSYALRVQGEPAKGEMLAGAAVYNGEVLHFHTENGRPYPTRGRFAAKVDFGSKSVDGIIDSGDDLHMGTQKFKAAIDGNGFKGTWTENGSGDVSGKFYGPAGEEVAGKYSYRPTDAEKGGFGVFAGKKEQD

This data set has as its target NHBA (Neisseria Heparin Binding Antigen), recombinant (Neisseria meningitidis MC58 (serogroup B)) (UniProt Q7DD37). The experiment in a line: SPR. The note with it: NHBA immobilized by amine coupling on CM5, DNA as analyte, saturation not reached, not 1:1; SPR: Biacore T200, CM5 chip, 1:5 dilution series 1 nM-100 uM, single cycle kinetics; recombinant protein; residues 25-488; probe letters rebuilt from the primers and the genome.

On to “GAAGCCTGAATGCCTTTCCAGCCGCCGATAGACGAACCGTCAAACGCCTGACCGTTTTCGAACCACTCTTCGGGGTCTTCCAACACGATGCGCGCAGGCACGGTAAAGTGGTGCTGCTTGCCTTTGGTATCGGTAAAGCGCAAATCGACAAAGCGGGCTTCGCTTTCTTCAATCAATTTTACGGCGTTTTTAATAGACATTTTTCAGCTCCTGGAAAAGGGAAATAGCAAAATATGCGGAACGCGGCGGCTTGACGCAAAGTCGGCACGATTTTACCACGCCGATGCCGTCTGAAACCGGTTTTGCGTCAAATTTCAAGCCGGAAAATATAGTTTCAGACGGCAAGATTGTCAACAATGCGGACAAGCCGGCGCACCGCATCCGGATTTTTCCCGACCGATACAGGAAACGATGCCGTCTGAAGGCGGTTTCAGACGGCATCGTTTCCATCTGTACGCCGCCGTTATAAAATAGCCTTCCCGTCTTTTGGAACACGACC (double strand) [503 bp PCR fragment of N. meningitidis genomic DNA]”, for which the Kd (usually a measure of binding affinity in units of concentration) was 71 nM.
